The data set in a line: Checking of quality of semicarbazide slides with rhodamine-conjugated peptide probe. The following applies: probe 0.1 mM, pH 5.5, 1 hour 37° C.
Setting [1] is: functionalised slides, first modification.
Where [2] appears, read: functionalised slides, second modification.

As to “(5)-6-carboxytetramethyl-rhodamine-Lys-Arg-NH2 [amide]”, the Mean fluorescence by setting is: under setting [1], 3450; under setting [2], 1732; (non-functionalised slides) 5270.

As for “(5)-6-carboxytetramethylrhodamine-Lys-Arg-NH—(CH2)3—NH—CO—CHO [α-oxo aldehyde]”, the Mean fluorescence runs as follows: under setting [1], 36260; under setting [2], 28882; (non-functionalised slides) 7789.
